Earlier results, collected in patent publication US6340461B1 (priority 1996, dated 2002).

Tested on: T cells
Conditions: cited from earlier work

For “N-Ser-Glu-Lys-Ser-Glu-Glu-Ile-Asn-Glu-Lys-Asp-Leu. Arg Lys-Lys-Ser-Glu-Leu-Gln-Gly-Thr-Ala-Leu-Gly-Asn-Leu-Lys-”, the “effect on SEA induced T cell proliferation and production of interferon γ” value is listed as “blocks SEA induced T cell proliferation and production of interferon γ”.
